Reference: patent publication US20120301493A1 (UNIVERSIDADE DE SANTIAGO DE COMPOSTELA, published 2012)

How the values were obtained:
human wild type p53 [1] = biological target: T1, human wild type p53 (human, UniProt P04637 1-393); assay: co-expression in Cos-7 cells, immunofluorescence
T1 construct: whole, on cells; also called untagged p53; Intercoil-free p53

GFP/muNS (605-635) = GFP/muNS (605-635) (Aequorea victoria; avian Orthoreovirus …, UniProt P42212 1-238 = GFP); assay: co-expression with muNS-Mi in CEF cells, GFP fluorescence microscopy
human wild type p53 [2] = biological target: T1, human wild type p53; assay: co-expression in Cos-7 cells, immunofluorescence (nuclear inclusions)

B1: muNS-Mi, region 448-635 of avian reovirus S1133 muNS protein (other)
chain: PAALLSKIADLQRANRELSLKLVDVQPAREDHLLAYLNEHVCVNAKDHEKGLLARCNVSGDSISSILGQRMKNRERFETRLRHEASAEWEPRVEALNQELAKARVEQQDMMTQSLQYLNERDELLQEVDELKRELTTLRSANVRLNADNHRMSRATRVGDAFVSDVEPLPSGIPGESKPSMEELVDDL
B1: no binding (human wild type p53 [1]); no binding (GFP/muNS (605-635)).

B2: VP16-muNS (other)
chain: MASTKWGDKPMSVSMSHDGSSIRSAASQFLSGPLFHSTPIPPQRKTVLLKFMIGDELVTVQGALAPFDEYWYDNQPLLAQAVEMLASADRLRQFEHYEKFLLKKGHQITEIMNRLRLFFTDVLKVKMEADALPALAQYLMVGTLEAVSTADSPDACVPVTSKILAKQQTIAKSPGRLDEEEYNVIRSRFLTHEVFDLTSDLPGVQPFMDMYYATVPRADSTGWCVYRRKGLLIHAPDEQFSDLTIFSTRLTASRELQLVAGDVAVACFDLMDVSDIAPSHHASVQEERTLGTSRYSNVTANDHPLVFFSPSALRWAIDHACTDSLVSTRNIRVCVGIDPLVTRWTRDGVQEAAILMDDKLPSAGRARMALRTLLLARRSPMTSFLLGALKQSGGQLMEHYRCDAANRYGSPTVPVSHSPPCSKCPELKEQITKLSSSPLPKIDSNVGPAALLSKIADLQRANRELSLKLVDVQPAREDHLLAYLNEHVCVNAKDHEKGLLSRCNVSGDSISSILGQRVKNRERFETRLRHEASAEWEPRVEALNQELAKARVEQQDMMTQSLQYLNERDELLHEVDELKRELTTLRSANVRLNADNHRMSRATRVGDAFVSDVEPLPSGIPGESKPSMEELVDDL
notes: not shown: limits and or
B2: no binding (human wild type p53 [2]).
